Test results taken from patent USRE46698E1, “Use of cyclohexanol derivatives as antimicrobial active compounds” (MERCK PATENT GMBH, priority 2011, dated 2018).

Assay: Deodorant action, inherent odour (Example 2)

## CCOC(=O)C1CCCCC1O (stereo not shown) [Substance I-2]
  Inherent odour: of apple
